# Experimental data: PubChem BioAssay AID1259414 (Drosophila RNAi Screening Center, 2018)
# Aim: 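Genome-wide screen for host control of endosymbiont load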 (primary screen)
# Cell system: Drosophila JW18 cells infected with Wolbachia
# Reagents: long dsRNA against Drosophila genes, 0.25 µg dsRNA per well of a 384-well plate
# Duration: 5 days
# Treatment: cells persistently infected with Wolbachia before knock-down; no added drug
# Read-out: 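Automated imaging of bacterial rRNA staining divided by host cell count, reported as plate-normalised robust z-score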
# Scale: Wolbachia per cell robust z: higher = more Wolbachia per host cell than the plate typical
# Active means: 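Active if absolute robust z reaches 1.5 in two or more of three replicates, leaving out multi- or no-target dsRNAs, genes unexpressed in JW18 and A1 wells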
# The deposit covers about 24,000 reagents; below is a random part of those with a known target gene and a result. Over the whole deposit, about 1,210 (5%) are marked active. 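Inactive calls also include excluded dsRNAs with several or no targets, genes unexpressed in JW18, and well A1, regardless of score.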
target,amplicon,"Wolbachia per cell robust z, rep 1","Wolbachia per cell robust z, rep 2","Wolbachia per cell robust z, rep 3",Call
fipi (factor of interpulse interval),DRSC00465,0.341,-1.05,-0.269,inactive
fipi (factor of interpulse interval),DRSC25365,0.683,2.26,1.92,inactive
Twdlbeta (Tweedlebeta),DRSC07310,0.393,0.613,0.513,inactive
Twdlbeta (Tweedlebeta),DRSC25646,0.764,2.47,2.07,inactive
Map205 (Microtubule-associated protein 205),DRSC16732,1.53,0.422,1.28,inactive
Map205 (Microtubule-associated protein 205),DRSC27322,-0.894,-0.906,-2.32,inactive
CG1161,DRSC24956,0.0146,1.65,0.768,inactive
kat80 (katanin 80),DRSC20344,0.591,1.31,0.758,inactive
kat80 (katanin 80),DRSC20345,0.341,-0.942,-0.0497,inactive
Cpr12A (Cuticular protein 12A),DRSC19722,-2.98,-4.94,-0.335,inactive
Sod1 (Superoxide dismutase 1),DRSC11286,0.0193,0.658,0.494,inactive
Sod1 (Superoxide dismutase 1),DRSC40766,0.824,1.2,0.237,inactive
msi (musashi),DRSC17003,0.0366,0.315,0.185,inactive
Usp32 (Ubiquitin specific protease 32),DRSC10979,0.531,-0.563,0.755,inactive
Usp15-31 (Ubiquitin specific protease 15/31),DRSC04426,0.0426,-1.06,0.693,inactive
Usp15-31 (Ubiquitin specific protease 15/31),DRSC24986,-0.394,-0.192,0.0723,inactive
CG34141,DRSC38603,0.447,-0.0694,0.551,inactive
alpha-Est4aPsi (pseudo),DRSC12473,-2.97,-4.47,-3.08,inactive
CG43373,DRSC09869,1.26,0.281,-0.078,inactive
CG43373,DRSC09885,0.0703,0.0443,0.5,inactive
CG43373,DRSC26831,-1.23,-2.33,-0.00643,inactive
CG13634,DRSC14635,-0.0641,0.193,-0.0718,inactive
Syx5 (Syntaxin 5),DRSC03432,2.05,0.585,1.11,inactive
Syx5 (Syntaxin 5),DRSC40872,1.01,0.854,1.25,inactive
Swim (Secreted Wg-interacting molecule),DRSC04334,-4.66,0.417,0.433,inactive
mRpS23 (mitochondrial ribosomal protein S23),DRSC01348,-0.592,-1.59,-4.54,active
mud (mushroom body defect),DRSC19019,-4.16,-0.425,-0.864,inactive
ND-49 (NADH dehydrogenase (ubiquinone) 49 kDa subunit),DRSC17151,0.533,-6.01,0.307,inactive
cv (crossveinless),DRSC17833,0.375,-0.216,0.614,inactive
Elp4 (Elongator complex protein 4),DRSC25002,0.661,-0.131,0.588,inactive
tth (toothrin),DRSC19435,0.289,0.478,-1.46,inactive
tth (toothrin),DRSC25120,-0.243,-0.237,0.249,inactive
Eig71Ej,DRSC11157,-2.95,0.421,-1.09,inactive
Eig71Ej,DRSC28224,-0.203,-0.476,-0.466,inactive
Cyfip (Cytoplasmic FMR1 interacting protein),DRSC15679,1.37,1.28,0.826,inactive
CG2004,DRSC18200,0.425,-5.46,0.958,inactive
CG11710,DRSC20485,-1.7,-2.41,-4.49,active
CG11710,DRSC29756,0.631,-6.4,1.41,inactive

5 entries already listed, sorted by “Wolbachia per cell robust z, rep 2”, descending.
target,amplicon,"Wolbachia per cell robust z, rep 1","Wolbachia per cell robust z, rep 2","Wolbachia per cell robust z, rep 3",Call
Cyfip (Cytoplasmic FMR1 interacting protein),DRSC15679,1.37,1.28,0.826,inactive
Eig71Ej,DRSC11157,-2.95,0.421,-1.09,inactive
Eig71Ej,DRSC28224,-0.203,-0.476,-0.466,inactive
CG11710,DRSC20485,-1.7,-2.41,-4.49,active
CG2004,DRSC18200,0.425,-5.46,0.958,inactive

Next entries follow:
target,amplicon,"Wolbachia per cell robust z, rep 1","Wolbachia per cell robust z, rep 2","Wolbachia per cell robust z, rep 3",Call
CG18853,DRSC06795,0.506,-0.613,0.243,inactive
CG11248,DRSC11644,-0.406,0.499,-0.134,inactive
Tektin-A (Tektin A),DRSC01921,-0.469,-0.344,-1.17,inactive
CG13722,DRSC08331,-8.47,-1.26,0.0445,inactive
CG13722,DRSC21616,0.958,0.754,1.24,inactive
CG13722,DRSC24663,0.298,-0.322,-0.027,inactive
Ntf-2 (Nuclear transport factor-2),DRSC20552,-1.45,-0.187,0.261,inactive
Ntf-2 (Nuclear transport factor-2),DRSC25597,-1.68,-1.64,-0.389,active
lncRNA:CR32385 (long non-coding RNA:CR32385),DRSC22966,0.132,-1.31,-0.0465,inactive
Agpat3 (1-Acylglycerol-3-phosphate O-acyltransferase 3),DRSC10445,0.695,0.318,-1.24,inactive
CG42691,DRSC40513,-0.0386,0.748,0.623,inactive
CG42691,DRSC41459,0.885,-1.46,-2.12,inactive
CG13392,DRSC02262,-2.05,-0.666,-0.56,inactive
tef (teflon),DRSC07301,-1.64,-0.0112,-1.18,inactive
tef (teflon),DRSC22041,-0.382,-1.71,-0.161,inactive
tef (teflon),DRSC26918,0.113,-1.28,0.319,inactive
CG5697,DRSC23479,0.729,0.25,-0.589,inactive
Pi4KIIIalpha (Phosphatidylinositol 4-kinase III alpha),DRSC18655,0.149,0.188,-0.566,inactive
Pi4KIIIalpha (Phosphatidylinositol 4-kinase III alpha),DRSC41282,0.673,0.534,-0.121,inactive
fax (failed axon connections),DRSC11345,-2.53,-2.45,-0.78,active
fax (failed axon connections),DRSC27842,0.371,-1.86,-0.55,inactive
CG31677,DRSC22023,-0.397,-0.317,-1.59,inactive
Cyp4g15 (Cytochrome P450 4g15),DRSC20240,0.532,0.101,1.03,inactive
Mtmr6 (Myotubularin related protein 6),DRSC04046,-5.43,-0.0211,-2.7,active
Mtmr6 (Myotubularin related protein 6),DRSC26569,-0.357,-0.0515,-0.84,inactive
CG42847,DRSC40522,-0.309,-0.37,-1.93,inactive
Cda5 (Chitin deacetylase-like 5),DRSC00529,1.13,0.237,-1,inactive
Cda5 (Chitin deacetylase-like 5),DRSC00532,-0.11,0.122,0.69,inactive
Cda5 (Chitin deacetylase-like 5),DRSC21330,0.557,-1.36,-0.276,inactive
CG8492,DRSC10984,-1.34,0.367,0.724,inactive
CG8492,DRSC21804,-0.12,-0.118,-1.35,inactive
